Results as given in article PMC6224593.

Key:
[1] = test system: T1, ComR (Streptococcus mutans UA159); test: EMSA; details: ComR without XIP; EMSA: ComR 4 uM, XIP 8 uM, Prx as indicated, 30 min RT, then 100 ng FAM-DNA 15 min RT; 5% native PAGE; recombinant protein; residues 1-304; protein details: N-terminal His6 (pET-15b); label: 5'-FAM on reverse strand; probe letters rebuilt from the primers and the genome
T1 sequence (looked up): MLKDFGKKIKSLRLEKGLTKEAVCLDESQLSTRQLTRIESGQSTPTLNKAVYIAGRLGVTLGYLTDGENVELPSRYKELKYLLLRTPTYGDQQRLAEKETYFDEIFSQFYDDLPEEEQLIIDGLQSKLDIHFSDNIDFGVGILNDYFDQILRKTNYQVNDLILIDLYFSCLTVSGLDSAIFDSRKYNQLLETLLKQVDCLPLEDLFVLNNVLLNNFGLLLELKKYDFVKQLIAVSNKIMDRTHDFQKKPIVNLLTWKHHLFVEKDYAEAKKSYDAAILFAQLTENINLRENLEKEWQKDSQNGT

[2] = test system: ComR + XIP (mature ComS peptide); test: EMSA; details: 4 uM ComR, 8 uM XIP, no Prx; EMSA: ComR 4 uM, XIP 8 uM, Prx as indicated, 30 min RT, then 100 ng FAM-DNA 15 min RT; 5% native PAGE; recombinant protein; protein details: N-terminal His6 (pET-15b); label: 5'-FAM on reverse strand; probe letters rebuilt from the primers and the genome

CCTGTTATTCTCCTTTCTTTTTGATATCATTCATTATAAATGATCCTTCAAAAAAAGAACAGGACATTTATGTCCCGTTCTGAGAATCTTTTTGCCATTCTTTCTCCAAATTTTCTCTTAAATTAATGTTTTCTGTTAACTGGGCAAATAAGATAGCAGCATCATAGCTCTTTTTAGCTTCCGCATAATCTTTTTCAACAAATAAATGATGCTTCCATGTCAGAAGATTAACAATAGGCTTTTTTTGAAAATCATGAGTTCTATCCATGATTTTATTGCTGACAGCAATAAGCTGCTTAACAAAATCATATTTTTTCAATTCTAAGAGGAGTCCAAAATTATTCAATAAAACATTATTTAAAACGAAAAGATCTTCCAATGGAAGGCAGTCTACCTGCTT (double strand) [comS promoter probe (PcomS)]
binding result [1]: no binding
binding result [2]: binds

TTGAATCGGGTAGCATATAAAGAGAATGGGCTAATGGTTTCTCCTTAAACTATTAGAATGATTGTTTAATAGTGCAGACGGTTTTGAGATTTGTTATATTTAATAAGTTAATGTATCGTCCAAATTGGTTAAGTACATGGAGGTAAAAATATGATTGTATGCGCGGCGATTAGTTTTTGTTTCTTGTGAACTTTGATTTGTTGATATTGTTCTCGAATTGGGCGTGTTCGACATACCCTGCTTTATCTTGAATTTTGATCCTCTTAATTTTCAATCTGTGAATTGAATGTTTCAGGGAATTTGTCCAATTTCAAATAATGAGAACCGTGTGGATCTACTTATCAAAATTTTTTGCGTAAAATAAAGGATCTGCTTAAGTGTTTTATTAGTTTGTAATGCGAGGTGATGTTTTGTTTAAAAAGAAACTGTTTAATCTGTTAGTCAGAGGTTGTAAATAAAACAGCCAGTTAAGATGGGACATTTATGTCCTGTTCTTAAAGTCTTTTTCGTTTTATAATAATTTTATTATAAAAGGAGGTCATCGTAATAG (double strand) [sigX promoter probe (PsigX)]
binding result [1]: no binding
binding result [2]: binds

For some of these results: No signal at the amounts used counts as a negative. For some of these results: At least one verdict rests on a figure or table, not on a statement of the authors. For some of these results: Tags and fusion partners may be left off the protein sequences shown.
